Anti-infective test results gathered from many reports (values: NIAID ChemDB through PubChem).

All rows: growth or infection tests; agent: Mycobacterium avium

Blank or dashed fields: not listed here. A number after MIC or MFC names an inhibition level or a share of isolates. Two numbers with a dash give a range or band. Conditions beyond the fields shown may differ between rows.

{"smiles": "CO[C@H]1/C=C/O[C@@]2(C)Oc3c(C)c(O)c4c(O)c(c5c(c4c3C2=O)NC2(CCN(CC(C)C)CC2)N=5)=NC(=O)/C(C)=C\\C=C\\[C@H](C)[C@H](O)[C@@H](C)[C@@H](O)[C@@H](C)[C@H](OC(C)=O)[C@@H]1C", "strain or isolate": "6-13", "measure": "MIC", "result": "<0.15 µg/mL"}
{"smiles": "CC(C)N=c1cc2n(-c3ccc(Cl)cc3)c3ccccc3nc-2cc1Nc1ccc(Cl)cc1", "strain or isolate": "3090", "measure": "MIC", "result": "0.12 µg/mL"}
{"smiles": "CO[C@H]1/C=C/O[C@@]2(C)Oc3c(C)c(O)c4c(O)c(c(/C=N/N5CCN(C)CC5)c(O)c4c3C2=O)NC(=O)/C(C)=C\\C=C\\[C@H](C)[C@H](O)[C@@H](C)[C@@H](O)[C@@H](C)[C@H](OC(C)=O)[C@@H]1C", "strain or isolate": "ATCC 25291", "measure": "Median MIC", "result": "10 µg/mL"}
{"smiles": "Cc1cc(-c2cc3c(cc2F)c(=O)c(C(=O)O)cn3C2CC2)cc(C)n1", "strain or isolate": "3350", "measure": "MBC", "result": "2 µg/mL"}
{"smiles": "O=C(O)c1cn(C2CC2)c2c(Cl)c(N3C[C@@H]4CCCN[C@@H]4C3)c(F)cc2c1=O", "strain or isolate": "II", "measure": "MIC", "result": "4 µg/mL"}
{"smiles": "CCC1=C(CC)C(=O)c2ccccc2C1=O", "strain or isolate": "MAC104", "measure": "MIC", "result": "200 µg/mL"}
{"smiles": "CO[C@H]1/C=C/O[C@@]2(C)Oc3c(C)c(O)c4c(O)c(c5c(c4c3C2=O)NC2(CCN(CC(C)C)CC2)N=5)=NC(=O)/C(C)=C\\C=C\\[C@H](C)[C@H](O)[C@@H](C)[C@@H](O)[C@@H](C)[C@H](OC(C)=O)[C@@H]1C", "strain or isolate": "ATCC 25291", "measure": "Mean MIC", "result": ">0.56 µg/mL"}
{"smiles": "O=C(Nc1ccccc1)c1ccccc1OP(=O)(c1ccccc1)c1ccccc1", "conditions": "14 d", "strain or isolate": "MY330/88", "measure": "MIC", "result": "125 µM"}
{"smiles": "CO[C@H]1/C=C/O[C@@]2(C)Oc3c(C)c(O)c4c(O)c(c(/C=N/N5CCN(C)CC5)c(O)c4c3C2=O)NC(=O)/C(C)=C\\C=C\\[C@H](C)[C@H](O)[C@@H](C)[C@@H](O)[C@@H](C)[C@H](OC(C)=O)[C@@H]1C", "strain or isolate": "Isolate 90-1815", "measure": "MIC", "result": "2.5 µg/mL"}
{"smiles": "CC[C@@H](CO)NCCN[C@@H](CC)CO", "strain or isolate": "453", "measure": "MIC", "result": "16 µg/mL"}
{"smiles": "Cc1[nH]c(-c2ccc(Cl)cc2)c(CN2CCOCC2)c1CN1CCOCC1", "strain or isolate": "103317", "measure": "MIC", "result": ">64 µg/mL"}
{"smiles": "NC1CCCCN(c2c(F)cc3c(=O)c(C(=O)O)cn(C4CC4)c3c2F)C1=O", "strain or isolate": "PI2/8", "measure": "MIC", "result": "0.25 µg/mL"}
{"smiles": "O=C(Nc1ccc(Br)cc1)c1cc(Cl)ccc1OP(=O)(Oc1ccccc1)Oc1ccccc1", "conditions": "14 d", "strain or isolate": "MY330/88", "measure": "MIC", "result": "16 µM"}
{"smiles": "CC[C@H]1OC(=O)[C@H](C)[C@@H](O[C@H]2C[C@@](C)(OC)[C@@H](O)[C@H](C)O2)[C@H](C)[C@@H](O[C@@H]2O[C@H](C)C[C@H](N(C)C)[C@H]2O)[C@](C)(OC)C[C@@H](C)C(=O)[C@H](C)[C@@H](O)[C@]1(C)O", "conditions": "pH 7.4", "method": "broth dilution / radiometric", "strain or isolate": "1854", "measure": "MIC", "result": "0.5 µg/mL"}
{"smiles": "CC[C@H]1OC(=O)[C@H](C)[C@@H](O[C@H]2C[C@@](C)(OC)[C@@H](O)[C@H](C)O2)[C@H](C)[C@@H](O[C@@H]2O[C@H](C)C[C@H](N(C)C)[C@H]2O)[C@](C)(OC)C[C@@H](C)C(=O)[C@H](C)[C@@H](O)[C@]1(C)O", "strain or isolate": "RG1", "measure": "MIC", "result": "0.12 µg/mL"}
{"smiles": "O=C(O)c1cn(C2CC2)c2c(F)c(N3CCC(N4CCCC4)C3)c(F)cc2c1=O", "strain or isolate": "1915112", "measure": "MIC", "result": "≤4 µg/mL"}
{"smiles": "Cc1c(CN2CCN(C)CC2)c(CN2CCN(C)CC2)c(C)n1C1CCCCC1", "strain or isolate": "103317", "measure": "MIC", "result": ">64 µg/mL"}
{"smiles": "CC[C@H]1OC(=O)[C@H](C)[C@@H](O[C@H]2C[C@@](C)(OC)[C@@H](O)[C@H](C)O2)[C@H](C)[C@@H](O[C@@H]2O[C@H](C)C[C@H](N(C)C)[C@H]2O)[C@](C)(OC)C[C@@H](C)C(=O)[C@H](C)[C@@H](O)[C@]1(C)O", "strain or isolate": "9 isolates (HIV+)", "measure": "MIC90", "result": "4 µg/mL"}
{"smiles": "CCNCC1CCN(c2c(F)cc3c(=O)c(C(=O)O)cn4c3c2CCC4C)C1", "strain or isolate": "PI2/8", "measure": "MIC", "result": "0.25 µg/mL"}
{"smiles": "O=C1C=CC(=O)c2c(O)ccc(O)c21", "strain or isolate": "MAC104", "measure": "MBC", "result": "12.5 µg/mL"}
{"smiles": "Cc1[nH]c(-c2ccc(Cl)cc2)cc1CN1CCOCC1", "strain or isolate": "103317", "measure": "MIC", "result": ">64 µg/mL"}
{"smiles": "CCn1cc(C(=O)O)c(=O)c2cc(F)c(N3CCS(=O)CC3)c(F)c21", "strain or isolate": "PI12/39", "measure": "MIC", "result": "0.25 µg/mL"}
{"smiles": "N[C@@H]1CONC1=O", "strain or isolate": "453-C clarithromycin-resistant", "measure": "MIC", "result": "16 µg/mL"}
{"smiles": "O=C1c2cc(Br)ccc2OP(=O)(c2ccccc2)N1c1ccc(C(F)(F)F)cc1", "conditions": "14 d", "strain or isolate": "MY330/88", "measure": "MIC", "result": "8 µM"}
{"smiles": "Cc1cc(CN2CCN(C)CC2)c(C)[nH]1", "strain or isolate": "103317", "measure": "MIC", "result": ">64 µg/mL"}
{"smiles": "C[C@@H]1CN(c2c(F)c(N)c3c(=O)c(C(=O)O)cn(C4CC4)c3c2F)C[C@H](C)N1", "strain or isolate": "1915112", "measure": "MIC", "result": "2 µg/mL"}
{"smiles": "CCOc1ccc(NC(C)=O)cc1", "strain or isolate": "MAC104", "measure": "MIC", "result": "800 µg/mL"}
{"smiles": "CC1CN(c2c(F)c(N)c3c(=O)c(C(=O)O)cn(C4CC4)c3c2F)CCN1C", "strain or isolate": "SMT", "measure": "MIC", "result": "0.5 µg/mL"}
{"smiles": "CCN(CC)c1nc2c(s1)c1c(O)c3c(O)c(C)c4c(c32)C(=O)[C@@](C)(O/C=C/[C@H](OC)[C@@H](C)[C@@H](OC(C)=O)[C@H](C)[C@H](O)[C@H](C)[C@@H](O)[C@@H](C)/C=C/C=C(/C)C(=O)N1)O4", "strain or isolate": "50 strains", "measure": "MIC50", "result": "0.45 µg/mL"}
{"smiles": "C[C@@H]1CN(c2c(F)c(N)c3c(=O)c(C(=O)O)cn(C4CC4)c3c2F)C[C@H](C)N1", "strain or isolate": "II", "measure": "MIC", "result": "32 µg/mL"}
{"smiles": "CO[C@H]1/C=C/O[C@@]2(C)Oc3c(C)c(O)c4c(O)c(c5c(c4c3C2=O)NC2(CCN(CC(C)C)CC2)N=5)=NC(=O)/C(C)=C\\C=C\\[C@H](C)[C@H](O)[C@@H](C)[C@@H](O)[C@@H](C)[C@H](OC(C)=O)[C@@H]1C", "strain or isolate": "9 isolates (HIV+)", "measure": "MIC90", "result": "2 µg/mL"}
{"smiles": "O=C1C=CC(=O)C=C1", "strain or isolate": "MAC104", "measure": "MIC", "result": "100 µg/mL"}
{"smiles": "O=C(O)c1cn(C2CC2)c2c(F)c(N3CCNCC3)c(F)cc2c1=O", "strain or isolate": "1915112", "measure": "MIC", "result": "2–4 µg/mL"}
{"smiles": "O=C(Nc1ccc(C(F)(F)F)cc1)c1cc(Br)ccc1OP(=O)(c1ccccc1)c1ccccc1", "conditions": "14 d", "strain or isolate": "MY330/88", "measure": "MIC", "result": "16 µM"}
{"smiles": "CC1COc2c(N3CCN(C)CC3)c(F)cc3c(=O)c(C(=O)O)cn1c23", "strain or isolate": "13 strains", "measure": "MIC50", "result": "16 µg/mL"}
{"smiles": "CCc1cc(C(N)=S)ccn1", "strain or isolate": "3090", "measure": "MIC", "result": ">8 µg/mL"}
{"smiles": "c1ccc2c(CNc3ccc(N4CCSCC4)cc3)cccc2c1", "strain or isolate": "103317", "measure": "MIC", "result": "4 µg/mL"}
{"smiles": "CCNC(C)C1CCN(c2c(F)cc3c(=O)c(C(=O)O)cn(C4CC4)c3c2OC)C1", "strain or isolate": "PI4/44", "measure": "MIC", "result": "1 µg/mL"}
{"smiles": "CC[C@H]1OC(=O)[C@H](C)[C@@H](O[C@H]2C[C@@](C)(OC)[C@@H](O)[C@H](C)O2)[C@H](C)[C@@H](O[C@@H]2O[C@H](C)C[C@H](N(C)C)[C@H]2O)[C@](C)(O)C[C@@H](C)[C@@H]2N[C@@H](COCCOC)O[C@H]([C@H]2C)[C@]1(C)O", "strain or isolate": "30 strains", "measure": "Median MIC", "result": "4 µg/mL"}
{"smiles": "O=C(Nc1ccccc1)c1ccccc1OP(=O)(Oc1ccccc1)c1ccccc1", "conditions": "7 d", "strain or isolate": "MY330/88", "measure": "MIC", "result": "250 µM"}
{"smiles": "Nc1ccc(C(=O)O)c(O)c1", "strain or isolate": "ATCC 25291", "measure": "Median MIC", "result": "16 µg/mL"}
{"smiles": "CC1CN(c2c(F)cc3c(=O)c(C(=O)O)cn(C4CC4)c3c2F)CC(C)N1", "strain or isolate": "1915112", "measure": "MIC", "result": "2–4 µg/mL"}
{"smiles": "NCC[C@H](O)C(=O)N[C@@H]1C[C@H](N)[C@@H](O[C@H]2O[C@H](CN)[C@@H](O)[C@H](O)[C@H]2O)[C@H](O)[C@H]1O[C@H]1O[C@H](CO)[C@@H](O)[C@H](N)[C@H]1O", "strain or isolate": "ATCC 25291", "measure": "Mean MIC", "result": "5.8 µg/mL"}
{"smiles": "Cc1cc(CN2CCOCC2)c(C)[nH]1", "strain or isolate": "103317", "measure": "MIC", "result": ">64 µg/mL"}
{"smiles": "O=C(Nc1ccccc1)c1ccccc1OP(=O)(OCc1ccccc1)OCc1ccccc1", "conditions": "14 d", "strain or isolate": "MY330/88", "measure": "MIC", "result": "500 µM"}
{"smiles": "CC[C@@H](CO)NCCN[C@@H](CC)CO", "strain or isolate": "RG1", "measure": "MIC", "result": "8 µg/mL"}
{"smiles": "CCCCCCn1c(C)c(CN2CCOCC2)c(CN2CCOCC2)c1-c1ccc(Cl)cc1", "strain or isolate": "103317", "measure": "MIC", "result": ">64 µg/mL"}
{"smiles": "O=C(O)c1cn(C2CC2)c2c(F)c(N3CCSCC3)c(F)cc2c1=O", "strain or isolate": "TMC 1403", "measure": "MIC", "result": "≤0.25 µg/mL"}

3 of the rows above, restated:

| smiles | conditions | method | strain or isolate | measure | result |
|---|---|---|---|---|---|
| O=C1c2cc(Br)ccc2OP(=O)(c2ccccc2)N1c1ccc(C(F)(F)F)cc1 | 14 d | - | MY330/88 | MIC | 8 µM |
| c1ccc2c(CNc3ccc(N4CCSCC4)cc3)cccc2c1 | - | - | 103317 | MIC | 4 µg/mL |
| CCOc1ccc(NC(C)=O)cc1 | - | - | MAC104 | MIC | 800 µg/mL |